The target of this assay is AfChiB1 (Aspergillus fumigatus, UniProt Q873X9). The note with it: read-out: IC50(AfChiB); Table 4.
For `Cn1cnc2c1c(=O)n(CC(O)Cn1c(=O)c3c(ncn3C)n(C)c1=O)c(=O)n2C`, the IC50 turned out to be 1.4 µM. To `CC(CCn1c(=O)c2c(ncn2C)n(C)c1=O)n1c(=O)c2c(ncn2C)n(C)c1=O` (stereo not shown) belongs 1.1 µM; to `CC(Cn1c(=O)c2c(ncn2C)n(C)c1=O)Cn1c(=O)c2c(ncn2C)n(C)c1=O`, 12 µM. Regarding `C=C(Cn1c(=O)c2c(ncn2C)n(C)c1=O)Cn1c(=O)c2c(ncn2C)n(C)c1=O`, the IC50 stood at 5.7 µM.
